Results of unrelated studies side by side (data: NIAID ChemDB).

Common to all: whole-cell or culture tests; organism: HIV-1; read by: luciferase; read-out: EC50

a–b is a range or a potency band.

{"compound": "COc1ccc(N(C)C(=O)[C@H](Cc2ccccc2)NC(=O)Cn2c(=O)n(CC(=O)N[C@@H](Cc3ccccc3)C(=O)N(C)c3ccc(OC)cc3)c3cc(Cl)ccc32)cc1", "cell line": "MT-2", "strain": "NL4-3", "result": "0.08 µM"}
{"compound": "Cc1cc(C#N)cc(C)c1Oc1nc(Nc2ccc(C#N)cc2)nc2sccc12", "cell line": "HeLa", "strain": "Y181C", "result": "<0.01 µM"}
{"compound": "C=C(C)[C@@H]1CC[C@]2(CO)CC[C@]3(C)[C@H](CC[C@@H]4[C@@]5(C)CC=C(c6ccc(C(=O)O)cn6)C(C)(C)[C@@H]5CC[C@]43C)[C@@H]12", "mutations": "Gag P373S", "cell line": "MT-2", "strain": "NL4-3", "result": "1 µM"}
{"compound": "COc1ccnc2[nH]cc(C(=O)C(=O)N3C4CCCC3CN(C(=O)c3ccccc3)C4)c12", "cell line": "TZM-bl", "strain": "ZM214", "result": "0.83 µM"}
{"compound": "CN(C(=O)[C@H](Cc1cc(F)cc(F)c1)NC(=O)CN1c2ccccc2N(CC(=O)N[C@@H](Cc2cc(F)cc(F)c2)C(=O)N(C)c2ccc3c(c2)ncn3C)S1(=O)=O)c1ccc2c(c1)ncn2C", "cell line": "MT-2", "strain": "NL4-3", "result": "0.42 µM"}
{"compound": "COc1cnc(-n2cnc(C)n2)c2[nH]cc(C(=O)C(=O)N3CCN(C(=N)c4ccccn4)CC3)c12", "cell line": "HeLa(CD4+) + HeLa", "strain": "Luciferase reporter virus", "result": "<0.5 µM"}
{"compound": "Cc1cc(C)c(Oc2nc(Nc3ccc(C#N)cc3)nc3sccc23)c(C)c1", "cell line": "HeLa", "strain": "Y-188L", "result": "0.01–0.1 µM"}
{"compound": "COc1ccc(N(C)C(=O)[C@H](Cc2ccccc2)Nc2ccnc(N[C@@H](Cc3ccccc3)C(=O)N(C)c3ccc(OC)cc3)n2)cc1", "cell line": "MT-2", "strain": "NL4-3", "result": "12.04 µM"}
{"compound": "COc1cccc(C(=O)[C@@H]2[C@@H](c3ccc(F)cc3)[C@](C#N)(C(N)=O)[C@H]3CCc4cc(C)ccc4N23)c1", "cell line": "293T", "result": "17.7 µM"}
{"compound": "Cc1nnc(SCC(=O)Nc2ccccc2Br)n1-c1ccc(Cl)c2ccccc12", "mutations": "RT-Y188L", "cell line": "HeLa + HeLa-JC53", "strain": "NL4-3", "result": "0.2 µM"}
{"compound": "C=CCN(C(=O)[C@H](Cc1cc(F)cc(F)c1)NC(=O)c1ccc(F)c(C(=O)N[C@@H](Cc2cc(F)cc(F)c2)C(=O)N(CC=C)c2ccc(OC)cc2)c1)c1ccc(OC)cc1", "cell line": "MT-2", "strain": "NL4-3", "result": "0.04 µM"}
{"compound": "N#CC(=C1CCN(C(=O)C(=O)c2c[nH]c3c(-c4cncc(N)n4)ccnc23)CC1)c1ccccc1", "cell line": "HeLa", "result": "<1 µM"}
{"compound": "O=C(CCC(=O)Nc1ccc(Br)cn1)Nc1ccc(Br)cn1", "cell line": "TZM-bl", "strain": "VB59", "result": "98.13 µM"}
{"compound": "COc1ncc(OC)c2c(C(=O)C(=O)N3CCC(=C(F)c4ccccc4)CC3)c[nH]c12", "cell line": "HeLa", "result": "<1 µM"}
{"compound": "Cc1cn(CC(=O)Nc2ccc(Br)cn2)c(=O)[nH]c1=O", "cell line": "TZM-bl", "strain": "VB59", "result": "43.57 µM"}
{"compound": "O=C(C(=O)N1CCN(C(=NCCOCCO)c2ccccc2)CC1)c1c[nH]c2c(-n3ccnn3)ncc(F)c12", "cell line": "HeLa(CD4+) + HeLa", "strain": "Luciferase reporter virus", "result": "<0.5 µM"}
{"compound": "CC(=O)O[C@H]1[C@H]2C(C)=CC=C[C@@]2(C)C(=O)C[C@@H]2[C@]1(C)CC[C@@]2(O)C(C)C", "conditions": "pseudotyped", "cell line": "293T", "result": ">30 µM"}
{"compound": "COc1cccc(C(=O)C2C(c3ccc(Cl)cc3)C(C#N)(C(N)=O)C3CCc4cc(C)ccc4N23)c1", "cell line": "293T", "result": "12 µM"}
{"compound": "C[C@H](Cn1cnc2c(N)ncnc21)OCP(=O)(O)O", "cell line": "TZM-bl", "strain": "CH058", "result": "0.005 µM"}
{"compound": "O=C(CCC(=O)n1cnc2ccccc21)n1cnc2ccccc21", "cell line": "TZM-bl", "strain": "UG070", "result": "5.28 µM"}
{"compound": "C=C(C)[C@@H]1CC[C@]2(CO)CC[C@]3(C)[C@H](CC[C@@H]4[C@@]5(C)CC=C(c6ccc(C(=O)O)c(Cl)c6)C(C)(C)[C@@H]5CC[C@]43C)[C@@H]12", "mutations": "Gag P373S", "cell line": "MT-2", "strain": "NL4-3", "result": "1 µM"}
{"compound": "Cc1nnc(SCC(=O)Nc2ccccc2Br)n1-c1ccc(N(C)C)c2ccccc12", "mutations": "RT-Y188L", "cell line": "HeLa + HeLa-JC53", "strain": "NL4-3", "result": "0.24 µM"}
{"compound": "C=C(C)[C@@H]1CC[C@]2(C(=O)OC)CC[C@]3(C)[C@H](CC[C@@H]4[C@@]5(C)CC=C(c6ccc(C(=O)O)cc6)C(C)(C)[C@@H]5CC[C@]43C)[C@@H]12", "mutations": "Gag P373S", "cell line": "MT-2", "strain": "NL4-3", "result": "1 µM"}
{"compound": "Cc1ccc(-n2c(C)nnc2SCC(=O)Nc2ccc(C)cc2Cl)c(C)c1", "mutations": "RT-K103N Y181C", "cell line": "HeLa + HeLa-JC53", "strain": "NL4-3", "result": "0.06 µM"}
{"compound": "O=C(CCC(=O)Nc1ccc([N+](=O)[O-])cn1)Nc1ccc([N+](=O)[O-])cn1", "cell line": "TZM-bl", "strain": "ADA5", "result": "58.33 µM"}
{"compound": "COc1ccnc2[nH]cc(C(=O)C(=O)N3C4CCC3CN(C(=O)c3ccccc3)C4)c12", "cell line": "TZM-bl", "strain": "6535", "result": "0.02 µM"}
{"compound": "CC(=O)[C@H]1C/C=C(\\C)C(=O)C[C@@H]2[C@@](C)(C/C=C/1C)CC[C@@]2(O)C(C)C", "conditions": "pseudotyped", "cell line": "293T", "result": ">30 µM"}
{"compound": "Cc1cc(C#N)cc(C)c1Oc1nc(Nc2ccc(C#N)cc2)nc(N)c1Br", "mutations": "N348I", "cell line": "HEK293T", "strain": "p8.9", "result": "2.75 nM"}
{"compound": "CCc1ccc(-n2c(C)nnc2SCC(=O)Nc2ccc(C)cc2Cl)c2ccccc12", "mutations": "RT-Y188L", "cell line": "HeLa + HeLa-JC53", "strain": "NL4-3", "result": "0.11 µM"}
{"compound": "N#CN=C(c1ccccc1)N1CCN(C(=O)C(=O)c2c[nH]c3c(F)ccc(F)c23)CC1", "cell line": "HeLa(CD4+) + HeLa", "strain": "Luciferase reporter virus", "result": "<0.5 µM"}
{"compound": "CC(C)=CCC[C@@H](C)[C@@H]1[C@H](O)C/C(C)=C/C/C=C(/CO)[C@H]1CO", "conditions": "pseudotyped", "cell line": "293T", "result": ">30 µM"}
{"compound": "CCc1nnc(SCC(=O)Nc2ccc(C)cc2Br)n1-c1ccc(C)cc1", "mutations": "RT-K103N Y181C", "cell line": "HeLa + HeLa-JC53", "strain": "NL4-3", "result": "2.5 µM"}
{"compound": "C=C(C)[C@@H]1CC[C@]2(C(=O)O)CC[C@]3(C)[C@H](CC[C@@H]4[C@@]5(C)CC=C(c6ccc(CCC(=O)O)cc6)C(C)(C)[C@@H]5CC[C@]43C)[C@@H]12", "mutations": "Gag P373S", "cell line": "MT-2", "strain": "NL4-3", "result": "1 µM"}
{"compound": "Cc1cn(CC(=O)Nc2ccccn2)c(=O)[nH]c1=O", "cell line": "TZM-bl", "strain": "UG070", "result": "29.6 µM"}
{"compound": "CC1(C)OB(c2ccc(NC(=O)/N=C(\\c3ccccc3)N3CCN(C(=O)C(=O)c4c[nH]c5cccc(F)c45)CC3)cc2)OC1(C)C", "cell line": "HeLa(CD4+) + HeLa", "strain": "Luciferase reporter virus", "result": ">0.5 µM"}
{"compound": "C/C1=C/CC/C(C)=C2/C[C@@]3(C)CC[C@@](O)(C(C)C)[C@@H]3C2C1=O", "conditions": "pseudotyped", "cell line": "293T", "result": ">30 µM"}
{"compound": "N=C(c1ccccc1)N1CCN(C(=O)C(=O)c2c[nH]c3c(-c4nccs4)ccc(F)c23)CC1", "cell line": "HeLa(CD4+) + HeLa", "strain": "Luciferase reporter virus", "result": "<0.5 µM"}
{"compound": "Nc1c(C(=O)NCc2ccc(F)cc2F)c(=O)n(O)c2ncc(CCS(=O)(=O)CCN3CCOCC3)cc12", "mutations": "AGT (GGGAGT)", "cell line": "HOS", "result": "0.605 µM"}
{"compound": "CCc1ccc(-n2c(C)nnc2SCC(=O)Nc2ccc(C)cc2Cl)cc1", "mutations": "RT-K103N Y181C", "cell line": "HeLa + HeLa-JC53", "strain": "NL4-3", "result": "0.06 µM"}
{"compound": "C[C@@H]1CCO[C@H]2Cn3cc(C(=O)NCc4ccc(F)cc4F)c(=O)c(O)c3C(=O)N12", "cell line": "HOS", "result": "<0.004 µM"}
{"compound": "Cc1nnc(C(=O)NC(C)(C)c2nc(C(=O)NCc3ccc(F)cc3)c(O)c(=O)n2C)o1", "cell line": "TZM-bl", "strain": "NL4-3", "result": "0.00775 µM"}
{"compound": "C[C@H]1CO[C@@H]2Cn3cc(C(=O)NCc4ccc(F)cc4F)c(=O)c(O)c3C(=O)N12", "mutations": "+G insertion (GGGGAGT)", "cell line": "HOS", "result": "<0.001 µM"}
{"compound": "Cc1ncc(N(C)C(=O)[C@H](Cc2cc(F)cc(F)c2)NC(=O)NS(=O)(=O)N[C@@H](Cc2cc(F)cc(F)c2)C(=O)N(C)c2cnc(C)c(Cl)c2)cc1Cl", "cell line": "MT-2", "strain": "NL4-3", "result": "0.87 µM"}
{"compound": "O=C(C(=O)N1CCC(=C(c2ccccc2)c2cc(F)cc(F)c2)CC1)c1c[nH]c2c(Cl)ccnc12", "cell line": "HeLa", "result": "<1 µM"}
{"compound": "CC(=O)[C@H]1/C2=C(C)/C=C\\C=C(/C)C(=O)C2[C@@H]2[C@]1(C)CC[C@@]2(O)C(C)C", "conditions": "pseudotyped", "cell line": "293T", "result": ">30 µM"}
{"compound": "COc1ccc(N(C)C(=O)[C@H](Cc2cc(F)cc(F)c2)NC(=O)Cn2c(=O)n(CC(=O)N[C@@H](Cc3cc(F)cc(F)c3)C(=O)N(C)c3ccc(OC)cc3)c3ccccc32)cc1", "cell line": "MT-2", "strain": "NL4-3", "result": "0.02 µM"}
{"compound": "O=C(Cn1ccc(=O)[nH]c1=O)Nc1ccccn1", "cell line": "TZM-bl", "strain": "ADA5", "result": "178 µM"}
{"compound": "Cc1cc(C)c(Nc2nc(Nc3ccc(C#N)cc3)nc3ccsc23)c(C)c1", "cell line": "HeLa", "strain": "L1001-K103N", "result": ">0.1 µM"}
{"compound": "Cc1cc(S(N)(=O)=O)ccc1NC(=O)COc1ccc(Cl)cc1C(=O)c1cc(F)cc(C(F)(F)F)c1", "mutations": "RT-V106I Y181C", "cell line": "HELA MAGI", "strain": "IIIB", "result": "0.011 µM"}
{"compound": "C=C(C)[C@@H]1CC[C@]2(C(=O)O)CC[C@]3(C)[C@H](CC[C@@H]4[C@@]5(C)CC=C(c6ccc(/C=C/C(=O)O)cc6)C(C)(C)[C@@H]5CC[C@]43C)[C@@H]12", "mutations": "Gag P373S", "cell line": "MT-2", "strain": "NL4-3", "result": "1 µM"}
{"compound": "COc1cccc(C(=O)[C@@H]2[C@@H](c3ccc([N+](=O)[O-])c(OC)c3)[C@](C#N)(C(N)=O)[C@H]3CCc4cc(C)ccc4N23)c1", "cell line": "293T", "result": ">60 µM"}
{"compound": "Nc1c(C(=O)NCc2ccc(F)cc2F)c(=O)n(O)c2ncc(CCS(=O)(=O)c3ccccc3)cc12", "mutations": "+G insertion (GGGGAGT)", "cell line": "HOS", "result": "<0.001 µM"}
{"compound": "COc1cnc(-c2cnccn2)c2[nH]cc(C(=O)C(=O)N3CCC(=C(c4ccccc4)c4cccc(F)c4)CC3)c12", "cell line": "HeLa", "result": "<1 µM"}
{"compound": "NS(=O)(=O)c1ccc(NC(=O)CSc2nnc(C(F)(F)F)n2-c2ccc(Cl)c3ccccc23)c(Cl)c1", "mutations": "RT-Y188L", "cell line": "HeLa + HeLa-JC53", "strain": "NL4-3", "result": "0.041 µM"}
{"compound": "CCN(C(=O)[C@H](Cc1cc(F)cc(F)c1)NC(=O)CN1c2ccccc2N(CC(=O)N[C@@H](Cc2cc(F)cc(F)c2)C(=O)N(CC)c2ccc(NC(=O)OC)cc2)S1(=O)=O)c1ccc(NC(=O)OC)cc1", "cell line": "MT-2", "strain": "NL4-3", "result": "0.72 µM"}
{"compound": "C=C(C)[C@@H]1CC[C@]2(CO)CC[C@]3(C)[C@H](CC[C@@H]4[C@@]5(C)CC=C(c6ccc(C(=O)O)cc6)C(C)(C)[C@@H]5CC[C@]43C)[C@@H]12", "mutations": "Gag P373S", "cell line": "MT-2", "strain": "NL4-3", "result": "1 µM"}
{"compound": "Cc1cc(C)c(Oc2nc(Nc3ccc(C#N)cc3)nc3c(C)csc23)c(C)c1", "cell line": "HeLa", "strain": "Y181C", "result": "0.01–0.1 µM"}
{"compound": "COc1ccnc2[nH]cc(C(=O)C(=O)N3CCC(=C(C#N)c4ccccn4)CC3)c12", "cell line": "HeLa", "result": "<1 µM"}
{"compound": "CN(C(=O)[C@H](Cc1cc(F)cc(F)c1)NC(=O)c1cncc(C(=O)N[C@@H](Cc2cc(F)cc(F)c2)C(=O)N(C)c2ccc3scnc3c2)c1)c1ccc2scnc2c1", "cell line": "MT-2", "strain": "NL4-3", "result": "0.01 µM"}

The last 5 rows once more:

compound	conditions	mutations	cell line	strain	result
CCN(C(=O)[C@H](Cc1cc(F)cc(F)c1)NC(=O)CN1c2ccccc2N(CC(=O)N[C@@H](Cc2cc(F)cc(F)c2)C(=O)N(CC)c2ccc(NC(=O)OC)cc2)S1(=O)=O)c1ccc(NC(=O)OC)cc1	-	-	MT-2	NL4-3	0.72 µM
C=C(C)[C@@H]1CC[C@]2(CO)CC[C@]3(C)[C@H](CC[C@@H]4[C@@]5(C)CC=C(c6ccc(C(=O)O)cc6)C(C)(C)[C@@H]5CC[C@]43C)[C@@H]12	-	Gag P373S	MT-2	NL4-3	1 µM
Cc1cc(C)c(Oc2nc(Nc3ccc(C#N)cc3)nc3c(C)csc23)c(C)c1	-	-	HeLa	Y181C	0.01–0.1 µM
COc1ccnc2[nH]cc(C(=O)C(=O)N3CCC(=C(C#N)c4ccccn4)CC3)c12	-	-	HeLa	-	<1 µM
CN(C(=O)[C@H](Cc1cc(F)cc(F)c1)NC(=O)c1cncc(C(=O)N[C@@H](Cc2cc(F)cc(F)c2)C(=O)N(C)c2ccc3scnc3c2)c1)c1ccc2scnc2c1	-	-	MT-2	NL4-3	0.01 µM

Blank or dashed fields: not listed here. ECn: concentration that inhibits the pathogen or its effect by n%. Neighbouring rows are from separate reports.